Test results as given in patent publication US10407428B2, “Spiro-isoquinoline-1,4′-piperidine compounds having multimodal activity against pain” (ESTEVE PHARMACEUTICALS, S.A., priority 2014, dated 2019).

Test system: human σ1 receptor and human μ-opioid receptor
Assay: Human σ1 receptor radioligand assay and human μ-opioid receptor radioligand assay (μ and σ1 dual binding)
Details: read-out: μ and σ1 dual binding; combined class for Ki-μ ([3H]-DAMGO, CHO-K1 membranes) and Ki-σ1 ([3H](+)-pentazocine, HEK-293 membranes)

Compound | Ki [nM]
CC(=O)N1CCc2ccccc2C12CCN(CCc1ccccc1)CC2 | < 500
CC(=O)N1CCc2ccccc2C12CCN(CCc1ccnc(C#N)c1)CC2 | < 500
CC(=O)N1CCc2cc(O)ccc2C12CCN(CCc1ccccc1)CC2 | > 500
CC(=O)N1CCc2ccccc2C12CCN(CCN1CCOCC1)CC2 | < 500
CC(=O)N1CCc2ccccc2C12CCN(CCc1ccncc1)CC2 | < 500
CC(=O)N1CCc2ccccc2C12CCN(CCc1ccncc1F)CC2 | < 500
CC(=O)N1CCc2ccccc2C12CCN(CCN(C)Cc1ccccc1)CC2 | < 500
O=C(c1ccco1)N1CCc2ccccc2C12CCN(CCc1ccccc1)CC2 | < 500
CC(=O)N1CCc2ccccc2C12CCN(CCc1cncc(Cl)c1)CC2 | < 500
CC(=O)N1CCc2cc(Cl)ccc2C12CCN(CCc1ccccc1)CC2 | < 100
CC(=O)Nc1cccc(CCN2CCC3(CC2)c2ccccc2CCN3C(C)=O)c1 | < 500
CC(=O)N1CCc2ccccc2C12CCN(CCc1cccc(OC(F)(F)F)c1)CC2 | < 500
COc1ccc2c(c1)CCN(C(C)=O)C21CCN(CCc2ccccc2)CC1 | < 500
CC(=O)N1CCc2ccccc2C12CCN(CCc1cncc(F)c1)CC2 | < 500
CC(=O)N1CCc2ccccc2C12CCN(CCc1cccnc1)CC2 | < 500
CC(=O)N1CCc2ccccc2C12CCN(CCN(C)c1ccccc1)CC2 | < 100
CC(C)C(=O)N1CCc2ccccc2C12CCN(CCc1ccccc1)CC2 | < 500
CC(=O)N1CCc2ccccc2C12CCN(CCc1ccnc(C(F)(F)F)c1)CC2 | < 500
